Tested on: Pa-LPS induced lung injury
Experiment: Pa-LPS-induced lung injury, immunostaining of lung sections for ceramide, NFκB and NIMP-R14
[1] = Cftr-/- mice, 50 μg/mouse i.t., 24 hrs

Question: Which “controlling Pa-LPS induced lung injury (representative sections)” value (Cftr+/+ mice) does the source give for `CN(C)CCC=C1c2ccccc2CCc2ccccc21` [AMT, Amitriptyline] here?
Answer: relatively less effective

Question: And the “Pa-LPS induced NFκB levels (lung immunostaining)” value [1]?
Answer: significant decrease

Question: And the “Pa-LPS induced ceramide accumulation (lung immunostaining)” value [1]?
Answer: significant decrease

Question: What about the “Pa-LPS induced neutrophil infiltration (NIMP-R14)” value [1] of the same compound?
Answer: significant decrease

— US20130131146A1, “Compositions and Methods for Treating Pulmonary Conditions” (THE JOHNS HOPKINS UNIVERSITY, priority 2010, published 2013)
